The structures appear in SMILES notation.

For this assay, the target named is Modulator of drug activity A (Escherichia coli O157:H7) (UniProt Q8X6S1). In words: IC50 ratio for NR-positive and NR-negative cell lines. It is filed as functional.

As for `O=[N+]([O-])c1cnc(N(CCCl)CCCl)s1`, the Ratio was greater than 5.
